These results are taken from paper PMC12051234, “NrdR in Streptococcus and Listeria spp.: DNA Helix Phase Dependence of the Bacterial Ribonucleotide Reductase Repressor” (Molecular Microbiology, 2025).

By UniProt entry, the sequences of proteins in these tests, tags left out. Where a name states a change or a piece, a line headed by the entry shows the natural chain unless it says otherwise.
UniProt P0A8D0: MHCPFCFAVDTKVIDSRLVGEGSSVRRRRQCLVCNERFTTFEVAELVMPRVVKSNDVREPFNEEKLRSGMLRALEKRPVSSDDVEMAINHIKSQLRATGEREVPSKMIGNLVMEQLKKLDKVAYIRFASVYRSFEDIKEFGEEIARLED
UniProt Q8Y6W9: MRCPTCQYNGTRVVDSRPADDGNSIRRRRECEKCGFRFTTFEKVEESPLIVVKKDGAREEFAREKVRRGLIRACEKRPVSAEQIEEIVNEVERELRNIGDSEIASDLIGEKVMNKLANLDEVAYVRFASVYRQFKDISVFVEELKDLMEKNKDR

Usually Kd stands for the concentration at which binding is half-saturated.

Common to all, as to assay: MST
For data set [1], the target named is T1, SpnNrdR (Streptococcus pneumoniae TIGR4) (UniProt P67318).
T1 sequence (looked up): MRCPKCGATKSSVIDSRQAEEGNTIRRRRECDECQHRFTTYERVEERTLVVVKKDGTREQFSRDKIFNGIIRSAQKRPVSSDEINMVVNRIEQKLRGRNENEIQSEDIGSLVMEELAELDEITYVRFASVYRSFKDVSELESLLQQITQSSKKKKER
The settings on record: temperature not stated, recombinant protein, residues 1-157, protein details: C-terminal His6, label: 5'-Cy5 sense.

Data set [2] deals with EcoNrdR (Escherichia coli) (UniProt P0A8D0). Particulars: dATP + ATP, temperature not stated, recombinant protein, label: 5'-Cy5 sense.
For a further data set, the target named is apo-LmoNrdR (UniProt Q8Y6W9). The settings on record: temperature not stated, recombinant protein.
The mark [3] stands for this setting: ADP, residues 1-154, protein details: C-terminal His6, label: 5'-Cy5 sense.
Setting [4] is: ATP, residues 1-154, protein details: C-terminal His6, label: 5'-Cy5 sense.
[5] abbreviates: c-di-AMP + ATP, residues 1-154, protein details: C-terminal His6, label: 5'-Cy5 sense.
[6] abbreviates: c-di-AMP + dATP, residues 1-154, protein details: C-terminal His6, label: 5'-Cy5 sense.
The mark [7] stands for this setting: c-di-AMP, residues 1-154, protein details: C-terminal His6, label: 5'-Cy5 sense.
Where [8] appears, read: dATP + ADP, residues 1-154, protein details: C-terminal His6, label: 5'-Cy5 sense.
Where [9] appears, read: dATP + ATP, residues 1-154, protein details: C-terminal His6, label: 5'-Cy5 sense.
The mark [10] stands for this setting: dATP, residues 1-154, protein details: C-terminal His6, label: 5'-Cy5 sense.
Where [11] appears, read: no effector, residues 1-154, protein details: C-terminal His6, label: 5'-Cy5 sense.

For some of these results: No signal at the amounts used counts as a negative. For some of these results: Protein sequences can lack the tags named with them. The exact form of at least one protein or probe is not confirmed.

For “AACCAAATCAATATCTTGTGTATTTTTAAAAATTTTAGGATTTTTAACACAAGATATTGATTTTCCT (double strand) [Spn nrdDG (25 bp spacer)]”, the dissociation constant (Kd) in data set [1] (dATP + ATP) amounted to 15000 nM.

Turning to “ACTATTTATTATGGATTATGTGGTTGAATCTTTTTTCAACTACATCTAGTATCTCTG (double strand) [Eco nrdHIEF box 1 mutated]”, in data set [2], the Kd was > 69000 nM.

As for “ACTATTTGCTATATATTGTGTGGTTGAATCTTTTTTGAATTACGGCTAATATCTCTG (double strand) [Eco nrdHIEF box 2 mutated]”, in data set [2], the Kd was > 130000 nM.

In the case of “CAATAAAACTTCATCTTGTGTTATATTATTAAAGCAGACACAATATATAGTTAGTGGG (double strand) [Lmo nrdDG (16 bp spacer)]”, the Kd was found to be 132 nM in the data set with apo-LmoNrdR (setting [3]); 209 nM with apo-LmoNrdR (setting [4]); 130 nM with apo-LmoNrdR (setting [5]); 201 nM with apo-LmoNrdR (setting [6]); 188 nM with apo-LmoNrdR (setting [7]); 28 nM in the data set with apo-LmoNrdR (setting [8]). Besides, the Kd in the data set with apo-LmoNrdR (setting [9]) was 2.2 nM; with apo-LmoNrdR (setting [10]), 79 nM; with apo-LmoNrdR (setting [11]) it was > 804 nM.

As for “CCAGAGTACTATATCTTGCATTCACAATGAAAAAGTTATACTATATATAGTATCGAAC (double strand) [Lmo nrdAB proximal (16 bp spacer)]”, the Kd with apo-LmoNrdR (setting [3]) is 66 nM; with apo-LmoNrdR (setting [4]), 65 nM; in the data set with apo-LmoNrdR (setting [5]), 39 nM; with apo-LmoNrdR (setting [6]), 34 nM; with apo-LmoNrdR (setting [7]), 169 nM; in the data set with apo-LmoNrdR (setting [8]) it was 10 nM. The Kd was 4.7 nM with apo-LmoNrdR (setting [9]), > 909 nM with apo-LmoNrdR (setting [10]) and > 340 nM in the data set with apo-LmoNrdR (setting [11]).

In the case of “CTTAACTACTAAATATAGAAACTAGCGAAAAAATAGGCACTAGAAGTAGTAGCATTC (double strand) [Lmo nrdAB distal (15 bp spacer)]”, the Kd was found to be 271 nM in the data set with apo-LmoNrdR (ADP, residues 1-154, protein details: C-terminal His6); 508 nM in the data set with apo-LmoNrdR (ATP (> 508 in Fig S2), residues 1-154, protein details: C-terminal His6); 743 nM with apo-LmoNrdR (c-di-AMP + ATP (> 743 in Fig S2), residues 1-154, protein details: C-terminal His6); 356 nM in the data set with apo-LmoNrdR (c-di-AMP + dATP (> 356 in Fig S2), residues 1-154, protein details: C-terminal His6); 211 nM with apo-LmoNrdR (c-di-AMP, residues 1-154, protein details: C-terminal His6); 129 nM in the data set with apo-LmoNrdR (dATP + ADP, residues 1-154, protein details: C-terminal His6). Further, the Kd with apo-LmoNrdR (dATP + ATP, residues 1-154, protein details: C-terminal His6) is 21.2 nM; with apo-LmoNrdR (dATP, residues 1-154, protein details: C-terminal His6) it was > 334 nM; with apo-LmoNrdR (no effector, residues 1-154, protein details: C-terminal His6), > 1700 nM.

For the sequence “GATTTGCTGAAAACCTTGTTGTAATCATTGTTTAGACACTTTTCGTAATAAAACCAG (double strand) [Negative control]”, in the data set with apo-LmoNrdR (effector not stated, residues 1-154, protein details: C-terminal His6, label: 5'-Cy5 sense), the binding result is “no binding”.

Consider “TACAAACACTATATATTGTGTTTATATATAAAAACAACAAAAGAACACCACTATATTTAGTTCAAATC (double strand) [Spn nrdHEF box 1+2 (26 bp spacer)]”, for which the Kd was > 91000 nM in data set [1] (ATP) and 11000 nM in data set [1] (dATP + ATP).

In the case of “TCAAAACACAAGATATAGGGTTGTGTTTCAATACTAAACACAAAATATTGTATTCCTT (double strand) [Sth nrdHEF (16 bp spacer)]”, the Kd in data set [1] (ATP) is > 42000 nM.

Turning to “TCGAAAATCAATATATAGTGGTTGAGATAAAAATATACCACAATATATTGATTTTCCT (double strand) [Sth nrdDG (16 bp spacer)]”, the Kd in data set [1] (ATP) is > 80000 nM.

Regarding “TTTAAAAACAATTTATAGGATAATCATTGCTATTTCACAATACAAACACTATATATTGTGTTTATA (double strand) [Spn nrdHEF box 0+1 (24 bp spacer)]”, the binding result in data set [1] (ATP) was “no binding”. Moreover, the Kd in data set [1] (dATP + ATP) is > 69000 nM.
